Results from patent US20220089698A1, “ANTIBODIES THAT TARGET HIV GP120 AND METHODS OF USE” (published 2022).
Numbering of substitutions follows the chain as printed.

B1: Antibody 3.1.5-1 (antibody, human IgG1, kappa)
heavy: QVQLLQSGAAVTKPGASVRVSCEASGYNIRDYFIHWWRQAPGQGLQWVGWINPKTGQPNNPRQFQGRVSLTRHASWDFDTFSFYMDLKALRSDDTAVYFCARQRSDYWDFDVWGSGTQVTVSSASTKGPSVFPLAPSSKSTSGGTAALGCLVKDYFPEPVTVSWNSGALTSGVHTFPAVLQSSGLYSLSSVVTVPSSSLGTQTYICNVNHKPSNTKVDKKVEPKSCDKTHTCPPCPAPELLAGPDVFLFPPKPKDTLMISRTPEVTCVVVDVSHEDPEVKFNWYVDGVEVHNAKTKPREEQYNSTYRVVSVLTVLHQDWLNGKEYKCKVSNKALPLPEEKTISKAKGQPREPQVYTLPPSREEMTKNQVSLTCLVKGFYPSDIAVEWESNGQPENNYKTTPPVLDSDGSFFLYSKLTVDKSRWQQGNVFSCSVLHEALHSHYTQKSLSLSPGK
light: not shown
B2: Antibody 2.3.5-1 (antibody, human IgG1, kappa)
heavy: B1 heavy with Q3H, L5S, L90V, V97I
light: not shown
B3: Antibody 2.2.5-1 (antibody, human IgG1, kappa)
heavy: B1 heavy with Q3H, L5S, N28K, Y32H, L90V, V97I
light: not shown

What was measured:
Experiment in all cases: cell-based or functional assay
[1] = molecular target: HIV-1 envelope glycoprotein (Env, gp120) of virus 7015 (HIV-1)
[2] = molecular target: HIV-1 envelope glycoprotein (Env, gp120) of virus 7714 (HIV-1)
[3] = molecular target: HIV-1 envelope glycoprotein (Env, gp120) of virus VS043 (HIV-1)
[4] = molecular target: HIV-1 envelope glycoprotein (Env, gp120) of virus VS026 (HIV-1)
[5] = molecular target: HIV-1 envelope glycoprotein (Env, gp120) of virus THRO (HIV-1)
[6] = molecular target: HIV-1 envelope glycoprotein (Env, gp120) of virus VS044 (HIV-1)
[7] = molecular target: HIV-1 envelope glycoprotein (Env, gp120) of virus 92US712 (HIV-1)
[8] = molecular target: HIV-1 envelope glycoprotein (Env, gp120) of virus 8110 (HIV-1)
[9] = molecular target: HIV-1 envelope glycoprotein (Env, gp120) of virus 1489 (HIV-1)
[10] = molecular target: HIV-1 envelope glycoprotein (Env, gp120) of virus VS030 (HIV-1)
[11] = molecular target: HIV-1 envelope glycoprotein (Env, gp120) of virus 7576 (HIV-1)
[12] = molecular target: HIV-1 envelope glycoprotein (Env, gp120) of virus 8318 (HIV-1)
[13] = molecular target: HIV-1 envelope glycoprotein (Env, gp120) of virus 1413 (HIV-1)
[14] = molecular target: HIV-1 envelope glycoprotein (Env, gp120) of virus 302076 (HIV-1)
[15] = molecular target: HIV-1 envelope glycoprotein (Env, gp120) of virus VS049 (HIV-1)
[16] = molecular target: HIV-1 envelope glycoprotein (Env, gp120) of virus 92HT593 (HIV-1)
[17] = molecular target: HIV-1 envelope glycoprotein (Env, gp120) of virus 8320 (HIV-1)
[18] = molecular target: HIV-1 envelope glycoprotein (Env, gp120) of virus REJO (HIV-1)
[19] = molecular target: HIV-1 envelope glycoprotein (Env, gp120) of virus 8176 (HIV-1)
[20] = molecular target: HIV-1 envelope glycoprotein (Env, gp120) of virus VS042 (HIV-1)
[21] = molecular target: HIV-1 envelope glycoprotein (Env, gp120) of virus 7103 (HIV-1)
[22] = molecular target: HIV-1 envelope glycoprotein (Env, gp120) of virus 1003 (HIV-1)
[23] = molecular target: HIV-1 envelope glycoprotein (Env, gp120) of virus 7467 (HIV-1)
[24] = molecular target: HIV-1 envelope glycoprotein (Env, gp120) of virus 7595 (HIV-1)
[25] = molecular target: HIV-1 envelope glycoprotein (Env, gp120) of virus VS046 (HIV-1)
[26] = molecular target: HIV-1 envelope glycoprotein (Env, gp120) of virus 1012 (HIV-1)
[27] = molecular target: HIV-1 envelope glycoprotein (Env, gp120) of virus VS017 (HIV-1)
[28] = molecular target: HIV-1 envelope glycoprotein (Env, gp120) of virus VS001 (HIV-1)
[29] = molecular target: HIV-1 envelope glycoprotein (Env, gp120) of virus 7552 (HIV-1)
[30] = molecular target: HIV-1 envelope glycoprotein (Env, gp120) of virus 7051 (HIV-1)
[31] = molecular target: HIV-1 envelope glycoprotein (Env, gp120) of virus 8106 (HIV-1)
[32] = molecular target: HIV-1 envelope glycoprotein (Env, gp120) of virus VS039 (HIV-1)
[33] = molecular target: HIV-1 envelope glycoprotein (Env, gp120) of virus 8117 (HIV-1)
[34] = molecular target: HIV-1 envelope glycoprotein (Env, gp120) of virus 8134 (HIV-1)
[35] = molecular target: HIV-1 envelope glycoprotein (Env, gp120) of virus 7141 (HIV-1)
[36] = molecular target: HIV-1 envelope glycoprotein (Env, gp120) of virus 92US657 (HIV-1)
[37] = molecular target: HIV-1 envelope glycoprotein (Env, gp120) of virus 92US727 (HIV-1)
[38] = molecular target: HIV-1 envelope glycoprotein (Env, gp120) of virus VS004 (HIV-1)
[39] = molecular target: HIV-1 envelope glycoprotein (Env, gp120) of virus CHO77 (HIV-1)
[40] = molecular target: HIV-1 envelope glycoprotein (Env, gp120) of virus VS052 (HIV-1)

| Binder | Virus Neutralization Potency [1] | Virus Neutralization Potency [2] | Virus Neutralization Potency [3] | Virus Neutralization Potency [4] | Virus Neutralization Potency [5] | Virus Neutralization Potency [6] | Virus Neutralization Potency [7] | Virus Neutralization Potency [8] | Virus Neutralization Potency [9] | Virus Neutralization Potency [10] | Virus Neutralization Potency [11] | Virus Neutralization Potency [12] | Virus Neutralization Potency [13] | Virus Neutralization Potency [14] | Virus Neutralization Potency [15] | Virus Neutralization Potency [16] | Virus Neutralization Potency [17] | Virus Neutralization Potency [18] | Virus Neutralization Potency [19] | Virus Neutralization Potency [20] | also measured |
| --- | --- | --- | --- | --- | --- | --- | --- | --- | --- | --- | --- | --- | --- | --- | --- | --- | --- | --- | --- | --- | --- |
| B1 | 1.16 µg/mL | 1.5 µg/mL | 0.54 µg/mL | 0.1 µg/mL | 2.7 µg/mL | 0.16 µg/mL | 0.06 µg/mL | 1.81 µg/mL | 0.16 µg/mL | 6.86 µg/mL | 0.55 µg/mL | 0.36 µg/mL | 4.3 µg/mL | 0.06 µg/mL | 20.4 µg/mL | 0.16 µg/mL | 1.33 µg/mL | 0.02 µg/mL | 0.3 µg/mL | 1.94 µg/mL | Virus Neutralization Potency [21]: 0.91 µg/mL; Virus Neutralization Potency [22]: 1.02 µg/mL; Virus Neutralization Potency [23]: 0.12 µg/mL; Virus Neutralization Potency [24]: 3.56 µg/mL; Virus Neutralization Potency [25]: 0.03 µg/mL; Virus Neutralization Potency [26]: 1.19 µg/mL; Virus Neutralization Potency [27]: 1.03 µg/mL; Virus Neutralization Potency [28]: 0.1 µg/mL; Virus Neutralization Potency [29]: > 80 µg/mL; Virus Neutralization Potency [30]: 1.27 µg/mL; Virus Neutralization Potency [31]: 1.45 µg/mL; Virus Neutralization Potency [32]: 0.12 µg/mL; Virus Neutralization Potency [33]: 1.02 µg/mL; Virus Neutralization Potency [34]: 2.78 µg/mL; Virus Neutralization Potency [35]: 3.31 µg/mL; Virus Neutralization Potency [36]: 0.27 µg/mL; Virus Neutralization Potency [37]: 12 µg/mL; Virus Neutralization Potency [38]: 1.55 µg/mL; Virus Neutralization Potency [39]: 0.04 µg/mL |
| B2 | 1.89 µg/mL | 1.47 µg/mL | 0.79 µg/mL | 0.1 µg/mL | 2.34 µg/mL | 0.17 µg/mL | 0.05 µg/mL | 1.82 µg/mL | 0.14 µg/mL | 6.23 µg/mL | 0.61 µg/mL | 0.41 µg/mL | 3.79 µg/mL | 0.06 µg/mL | 36.1 µg/mL | 0.17 µg/mL | 1.48 µg/mL | 0.02 µg/mL | 0.33 µg/mL | 1.56 µg/mL | Virus Neutralization Potency [40]: 0.31 µg/mL; Virus Neutralization Potency [21]: 1.05 µg/mL; Virus Neutralization Potency [22]: 1.06 µg/mL; Virus Neutralization Potency [23]: 0.09 µg/mL; Virus Neutralization Potency [24]: 3.07 µg/mL; Virus Neutralization Potency [25]: 0.04 µg/mL; Virus Neutralization Potency [26]: 1.63 µg/mL; Virus Neutralization Potency [27]: 0.7 µg/mL; Virus Neutralization Potency [28]: 0.13 µg/mL; Virus Neutralization Potency [29]: > 80 µg/mL; Virus Neutralization Potency [30]: 4.46 µg/mL; Virus Neutralization Potency [31]: 1.44 µg/mL; Virus Neutralization Potency [32]: 0.15 µg/mL; Virus Neutralization Potency [33]: 1.06 µg/mL; Virus Neutralization Potency [34]: 1.52 µg/mL; Virus Neutralization Potency [35]: 2.41 µg/mL; Virus Neutralization Potency [36]: 0.24 µg/mL; Virus Neutralization Potency [37]: 9.32 µg/mL; Virus Neutralization Potency [38]: 2.77 µg/mL; Virus Neutralization Potency [39]: 0.04 µg/mL |
| B3 | 0.95 µg/mL | 0.8 µg/mL | 0.41 µg/mL | 0.06 µg/mL | 1.22 µg/mL | 0.12 µg/mL | 0.04 µg/mL | 1.1 µg/mL | 0.11 µg/mL | 4.22 µg/mL | 0.58 µg/mL | 0.33 µg/mL | 3.62 µg/mL | 0.06 µg/mL | 10.8 µg/mL | 0.11 µg/mL | 1.21 µg/mL | 0.01 µg/mL | 0.2 µg/mL | 1.21 µg/mL | Virus Neutralization Potency [40]: 0.2 µg/mL; Virus Neutralization Potency [21]: 0.78 µg/mL; Virus Neutralization Potency [22]: 0.78 µg/mL; Virus Neutralization Potency [23]: 0.07 µg/mL; Virus Neutralization Potency [24]: 2.94 µg/mL; Virus Neutralization Potency [25]: 0.03 µg/mL; Virus Neutralization Potency [26]: 0.98 µg/mL; Virus Neutralization Potency [27]: 0.77 µg/mL; Virus Neutralization Potency [28]: 0.1 µg/mL; Virus Neutralization Potency [29]: > 80 µg/mL; Virus Neutralization Potency [30]: 3.51 µg/mL; Virus Neutralization Potency [31]: 0.94 µg/mL; Virus Neutralization Potency [32]: 0.06 µg/mL; Virus Neutralization Potency [33]: 0.75 µg/mL; Virus Neutralization Potency [34]: 1.74 µg/mL; Virus Neutralization Potency [35]: 1.75 µg/mL; Virus Neutralization Potency [36]: 0.15 µg/mL; Virus Neutralization Potency [37]: 16.7 µg/mL; Virus Neutralization Potency [38]: 3.22 µg/mL; Virus Neutralization Potency [39]: 0.02 µg/mL |
